{"source": "PubChem BioAssay AID1259414 (Drosophila RNAi Screening Center, 2018)", "test": "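Fly genes that alter Wolbachia amount inside host cells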 (primary screen)", "cells": "Drosophila JW18 cells infected with Wolbachia", "reagents": "long dsRNA against Drosophila genes, 0.25 µg dsRNA per well of a 384-well plate", "timing": "5 days", "treatment": "cells persistently infected with Wolbachia before knock-down; no added drug", "detection": "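Automated imaging of bacterial rRNA staining divided by host cell count, reported as plate-normalised robust z-score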", "direction": "Wolbachia per cell robust z: higher = more Wolbachia per host cell than the plate typical", "active means": "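Active if absolute robust z reaches 1.5 in two or more of three replicates, leaving out multi- or no-target dsRNAs, genes unexpressed in JW18 and A1 wells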", "note": "The screen tested about 24,000 reagents; shown is a random part of those with a known target gene and a result. Of all reagents, about 1,210 (5%) got an active call. 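Inactive calls also include excluded dsRNAs with several or no targets, genes unexpressed in JW18, and well A1, regardless of score.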 A number with no mark means an inactive call. Names joined by + are all predicted targets of the reagent. Reagent sequences are not shown."}
{"gene knocked down": "RpL37-1", "DRSC id": "DRSC20149", "Wolbachia per cell robust z, rep 1": -0.57, "Wolbachia per cell robust z, rep 2": -0.111, "Wolbachia per cell robust z, rep 3": 0.865}
{"gene knocked down": "RpL37-1", "DRSC id": "DRSC21646", "Wolbachia per cell robust z, rep 1": 0.349, "Wolbachia per cell robust z, rep 2": 1.2, "Wolbachia per cell robust z, rep 3": 0.205}
{"gene knocked down": "mRpS7", "DRSC id": "DRSC02814", "Wolbachia per cell robust z, rep 1": -0.678, "Wolbachia per cell robust z, rep 2": -0.497, "Wolbachia per cell robust z, rep 3": -0.0278}
{"gene knocked down": "CG42564", "DRSC id": "DRSC12518", "Wolbachia per cell robust z, rep 1": 0.248, "Wolbachia per cell robust z, rep 2": 0.842, "Wolbachia per cell robust z, rep 3": 0.323}
{"gene knocked down": "CG42564", "DRSC id": "DRSC41466", "Wolbachia per cell robust z, rep 1": 0.619, "Wolbachia per cell robust z, rep 2": 0.0533, "Wolbachia per cell robust z, rep 3": 0.134}
{"gene knocked down": "CG42399", "DRSC id": "DRSC00322", "Wolbachia per cell robust z, rep 1": -0.83, "Wolbachia per cell robust z, rep 2": 0.517, "Wolbachia per cell robust z, rep 3": -0.0865}
{"gene knocked down": "CG42399", "DRSC id": "DRSC00661", "Wolbachia per cell robust z, rep 1": 0.705, "Wolbachia per cell robust z, rep 2": -0.066, "Wolbachia per cell robust z, rep 3": 0.477}
{"gene knocked down": "Sk1", "DRSC id": "DRSC19774", "Wolbachia per cell robust z, rep 1": 0.404, "Wolbachia per cell robust z, rep 2": 0.663, "Wolbachia per cell robust z, rep 3": -4.97}

Reprinted from the listing (2 entries):
{"gene knocked down": "RpL37-1", "DRSC id": "DRSC21646", "Wolbachia per cell robust z, rep 1": 0.349, "Wolbachia per cell robust z, rep 2": 1.2, "Wolbachia per cell robust z, rep 3": 0.205}
{"gene knocked down": "mRpS7", "DRSC id": "DRSC02814", "Wolbachia per cell robust z, rep 1": -0.678, "Wolbachia per cell robust z, rep 2": -0.497, "Wolbachia per cell robust z, rep 3": -0.0278}

Additional records:
{"gene knocked down": "Alg11", "DRSC id": "DRSC11647", "Wolbachia per cell robust z, rep 1": -2.07, "Wolbachia per cell robust z, rep 2": 1.1, "Wolbachia per cell robust z, rep 3": 1.26}
{"gene knocked down": "Obp83g", "DRSC id": "DRSC12269", "Wolbachia per cell robust z, rep 1": -0.0711, "Wolbachia per cell robust z, rep 2": -0.38, "Wolbachia per cell robust z, rep 3": -0.15}
{"gene knocked down": "Obp83g", "DRSC id": "DRSC28322", "Wolbachia per cell robust z, rep 1": 1.13, "Wolbachia per cell robust z, rep 2": 0.307, "Wolbachia per cell robust z, rep 3": 0.178}
{"gene knocked down": "Roc1b + Cdc5", "DRSC id": "DRSC26879", "Wolbachia per cell robust z, rep 1": -1.43, "Wolbachia per cell robust z, rep 2": -1.05, "Wolbachia per cell robust z, rep 3": -2.33}
{"gene knocked down": "Hsp67Ba", "DRSC id": "DRSC11191", "Wolbachia per cell robust z, rep 1": -0.674, "Wolbachia per cell robust z, rep 2": 0.797, "Wolbachia per cell robust z, rep 3": -0.166}
{"gene knocked down": "Hsp67Ba", "DRSC id": "DRSC23678", "Wolbachia per cell robust z, rep 1": -1.42, "Wolbachia per cell robust z, rep 2": -5.79, "Wolbachia per cell robust z, rep 3": 0.729}
{"gene knocked down": "ara", "DRSC id": "DRSC22984", "Wolbachia per cell robust z, rep 1": -0.303, "Wolbachia per cell robust z, rep 2": -5.05, "Wolbachia per cell robust z, rep 3": -5.62}
{"gene knocked down": "ara", "DRSC id": "DRSC25783", "Wolbachia per cell robust z, rep 1": 0.323, "Wolbachia per cell robust z, rep 2": -0.138, "Wolbachia per cell robust z, rep 3": 0.232}
